1 substance from publication PMC3360003, “Dissection of Influenza A Virus M1 Protein: pH-Dependent Oligomerization of N-Terminal Domain and Dimerization of C-Terminal Domain” (2012) can be followed below.

Test [1] deals with M1C, C-terminal domain of M1 (residues 165-252) (Influenza A virus A/chicken/Jiangsu/1/1998 (H9N2)). In words: cross-linking.
Test [2] has the same target. In words: AUC.

For orientation: stoichiometry N means a count of units in the complex or per binding partner. On to “M1C, C-terminal domain of M1 (residues 165-252) (domain or fragment)”, for which the stoichiometry N in test [1] and in test [2] was 2 in each case.
